Measured values from several laboratories, pooled; numbers as filed in NIAID ChemDB.

Common to all: tests in culture; agent: Hepatitis C virus

An empty or dashed field is not shown.

| compound | read by | read-out | strain | cells | conditions | value |
|---|---|---|---|---|---|---|
| Cc1cc2c([nH]c(=O)n2Cc2ccc(F)cc2)c(N)n1 | replicon | EC50 | - | - | - | 0.926 µM |
| CC(=O)N1c2cccc(O)c2NC2=C(C(=O)CC(C)(C)C2)C1c1ccc(Cl)cc1 | luciferase / reporter gene / replicon | EC50 | 1b | - | - | 10.54 µM |
| CC(C)[C@H](NC(=O)NC1CC1)C(=O)N1CC[C@H]2[C@H]1C1(CCC1)C(=O)N2C(=O)C1CC1 | - | EC50 | - | - | - | 8.5 µM |
| CC1(C)CC(=O)C2=C(C1)Nc1c(O)cccc1N(C(=O)OCC(=O)NS(C)(=O)=O)C2c1ccc(OCc2ccccc2)cc1Cl | luciferase / reporter gene / replicon | EC50 | 1b | - | - | >32 µM |
| O=C(Nc1ccc(C2SC(=Nc3cccc(F)c3)N(Cc3ccc(OC(F)(F)F)cc3)C2=O)cc1)[C@H]1CCCN1C(=O)OCc1ccccc1 | replicon | EC50 | - | Huh7 | - | 1–5 µM |
| [N-]=[N+]=N[C@]1(CO)O[C@@H](n2ccc(N)nc2=O)[C@@H](O)[C@@H]1O | luciferase | EC50 | - | Huh7 | - | 0.22 µM |
| COc1nc(O[C@@H]2C[C@H]3C(=O)N[C@]4(C(=O)NS(=O)(=O)C5(C)CC5)C[C@H]4/C=C\CCCCN(C)C(=O)[C@@H]3C2)cc(C(C)(C)C)n1 | luciferase / reporter gene / replicon | EC50 | 1b | - | - | >10 µM |
| O=C(Nc1ccc(C2SC(=Nc3cccc(F)c3)N(CC3CCCO3)C2=O)cc1)[C@H]1CCCN1C(=O)OCc1ccccc1 | replicon | EC50 | - | Huh7 | - | <0.1 µM |
| CC(C)[C@H](NC(=O)NCC1CC1)C(=O)N1CC[C@H]2[C@H]1C1(CCC1)C(=O)N2C(=O)C1CC1 | - | EC50 | - | - | - | 2.8 µM |
| CCc1nc(N)nc2ccc(-c3ccc(F)cc3)nc12 | replicon | EC50 | - | Huh7 | - | <0.3 µM |
| CC1(C)Oc2cc3oc(-c4cc(O)cc(O)c4)cc3cc2CC1O | replicon | EC50 | - | - | - | 35.6 µM |
| CC1(C)CC(=O)C2=C(C1)Nc1c(O)cccc1N(C(=O)CC(=O)O)C2c1ccc(Cl)cc1Cl | luciferase / reporter gene / replicon | EC50 | 1b | - | - | 32.21 µM |
| CC(C)(O)C1Cc2cc3cc(-c4cc(O)cc(O)c4)oc3cc2O1 | replicon | EC50 | - | - | - | 80.8 µM |
| Cc1ccc(-n2ncc3c(NC(=O)Nc4ccc(Br)cc4)ncnc32)c(C)c1 | replicon | EC50 | - | HUH 9B | - | 1–10 µM |
| Nc1nc(CCC2OCCCO2)c2nc(-c3ccc(F)cc3)ccc2n1 | replicon | EC50 | - | Huh7 | - | 0.3–1 µM |
| COc1cc(O[C@@H]2C[C@H]3C(=O)N[C@]4(C(=O)NS(=O)(=O)C5(C)CC5)C[C@H]4/C=C\CCCCN(C)C(=O)[C@@H]3C2)nc(-c2ccccc2)n1 | luciferase / reporter gene / replicon | EC50 | 1b | - | - | 0.0005–0.199 µM |
| CCc1nc(N)nc2ccc(-c3ccc(N)cc3)nc12 | replicon | EC50 | - | Huh7 | - | 0.3–1 µM |
| CCOc1ccc(Nc2ncnc3c2cnn3-c2ccc(C)cc2C)cc1 | replicon | EC50 | - | HUH 9B | - | 1–10 µM |
| O=C(N[C@H]1CCCCC/C=C\[C@@H]2C[C@@]2(C(=O)NS(=O)(=O)C2CC2)NC(=O)C2C[C@@H](OC(=O)N3Cc4cccc(F)c4C3)CN2C1=O)c1ccc2c(c1)B(O)OC2 | luciferase / replicon | EC50 | - | - | genotype 1a | 201 nM |
| N#CCn1c(=O)c2nnn3c2n(c1=O)C1O[C@H](C3)[C@@H](O)[C@H]1O | - | EC50 | - | Huh7 | - | >100 µM |
| CC(C)[C@H](NC(=O)N[C@H](C(=O)N1CC[C@H]2[C@H]1C1(CCC1)C(=O)N2C(=O)C1CC1)C(C)C)C(=O)OCc1ccccc1 | - | EC50 | - | - | - | 0.1 µM |
| CC(C)C(=O)N1c2cccc(O)c2NC2=C(C(=O)CC(C)(C)C2)C1c1cnc(Oc2ccccc2Br)s1 | luciferase / reporter gene / replicon | EC50 | 1b | - | - | 3.59 µM |
| CCc1cn([C@H]2O[C@H](CO)[C@@H](O)[C@@]2(C)F)c2ncnc(N)c12 | replicon | EC90 | - | CEM | - | >10 µM |
| COC(=O)N[C@H](C(=O)N1CCC[C@H]1c1ncc(-c2ccc3c(c2)Oc2ccc(-c4cnc([C@@H]5CCCN5C(=O)[C@@H](NC(=O)OC)C(C)C)[nH]4)cc2C3(C)C)[nH]1)C(C)C | luciferase / replicon | EC50 | GT2a | Huh7 | - | 0.000058 µM |
| NC(=S)Nc1cccc(OCCCCCOc2ccc(-n3ccnc3)cc2)c1 | reporter gene / fluorescence | EC50 | - | Ava5-EG(delta4AB)SEAP | - | 0.001–1 µM |
| CCCc1nc(N)nc2ccc(-c3ccc(NC(C)=O)cc3)nc12 | replicon | EC50 | - | Huh7 | - | 0.3–1 µM |
| Cc1ccc(-n2ncc3c(Nc4cc(Cl)cc(Cl)c4)ncnc32)c(C)c1 | replicon | EC50 | - | HUH 9B | - | <1 µM |
| C[C@@H](NC(=O)OCc1ccccc1)C(=O)Nc1ccc(C2SC(=Nc3cccc(Oc4ccccc4)c3)N(Cc3ccco3)C2=O)cc1 | replicon | EC50 | - | Huh7 | - | 0.1–1 µM |
| Cc1ccc(-n2ncc3c(CNc4ccc(Cl)c(Cl)c4)ncnc32)c(C)c1 | replicon | EC50 | - | HUH 9B | - | 1–10 µM |
| COc1ccc(-c2cc(O[C@@H]3C[C@H]4C(=O)N[C@]5(C(=O)NS(=O)(=O)C6CC6)C[C@H]5/C=C\CCCCN(C)C(=O)[C@@H]4C3)nc(OC)n2)cc1 | luciferase / reporter gene / replicon | EC50 | 1b | - | - | 0.2–0.99 µM |
| CCCC1(C)CC(=O)C2=C(C1)Nc1c(O)cccc1N(C(=O)C(C)C)C2c1ccc(OCc2ccccc2)cc1F | luciferase / reporter gene / replicon | EC50 | 1b | - | - | 0.66 µM |
| COc1nc(O[C@@H]2C[C@H]3C(=O)N[C@]4(C(=O)NS(=O)(=O)C5(C)CC5)C[C@H]4/C=C\CCCCN(C)C(=O)[C@@H]3C2)cc(-c2ccccc2)n1 | luciferase / reporter gene / replicon | EC50 | 1b | - | - | 0.2–0.99 µM |
| CC(C)[C@H](NC(=O)NC1CCCCC1)C(=O)N1CC[C@H]2[C@H]1C1(CCC1)C(=O)N2C(=O)C1CC1 | - | EC50 | - | - | - | 1.2 µM |
| CCCCc1ccc(Nc2ncnc3c2cnn3-c2ccccc2Br)cc1 | replicon | EC50 | - | HUH 9B | - | 1–10 µM |
| C[C@@]1(F)[C@H](O)[C@@H](CO)O[C@@H]1n1cc(Cl)c2c(N)ncnc21 | replicon | EC90 | - | CEM | - | >10 µM |
| COc1nc(N)nc2c1ncn2[C@@H]1O[C@H](CO[P@](=O)(N[C@@H](C)C(=O)OCC(C)(C)C)Oc2cccc3ccccc23)[C@@H](O)[C@@]1(C)O | luciferase | EC90 | H77 | Huh7 | - | 0.004 µM |
| c1ccc(-n2ncc3c(NCCc4c[nH]c5ccccc45)ncnc32)cc1 | replicon | EC50 | - | HUH 9B | - | 1–10 µM |
| C=Cc1cn([C@@H]2O[C@H](CO)[C@@H](O)[C@@]2(C)F)c2ncnc(N)c12 | replicon | EC90 | - | CEM | - | >10 µM |
| NC(=S)Nc1cccc(NCCCCCCCc2ccccc2)c1 | reporter gene / fluorescence | EC50 | - | Ava5-EG(delta4AB)SEAP | - | 0.001–1 µM |
| C=CCCc1nc(N)nc2ccc(-c3ccc(F)cc3)nc12 | replicon | EC50 | - | Huh7 | - | <0.3 µM |
| O=C(Nc1ccc(C2SC(=Nc3cccc(OC(F)(F)F)c3)N(Cc3ccco3)C2=O)cc1)[C@H]1CCCN1C(=O)OCc1ccccc1 | replicon | EC50 | - | Huh7 | - | 0.1–1 µM |
| NC(=S)Nc1cccc(OCCCCCOc2ccc(N3CCCC3)cc2)c1 | reporter gene / fluorescence | EC50 | - | Ava5-EG(delta4AB)SEAP | - | 0.001–1 µM |
| CC(C)[C@H](NC(=O)N[C@H](C(=O)N1CC[C@H]2[C@H]1C1(CCC1)C(=O)N2C(=O)C1CC1)C(C)C)C(=O)N1CCN(c2ncccn2)CC1 | - | EC50 | - | - | - | 0.3 µM |
| CCCc1nc(N)nc2ccc(-c3ccc(F)cc3)nc12 | replicon | EC50 | - | Huh7 | - | <0.3 µM |
| COC(=O)N[C@H](C(=O)N1CCC[C@H]1c1ncc(-c2ccc(-c3ccc(-c4cnc([C@@H]5CCCN5C(=O)[C@@H](NC(=O)OC)C(C)C)[nH]4)s3)cc2)[nH]1)C(C)C | replicon | EC90 | 1b replicon | Huh7 | - | >0.01 µM |
| CN1CCCC/C=C\[C@@H]2C[C@@]2(C(=O)NS(=O)(=O)C2CC2)NC(=O)[C@@H]2C[C@@H](Oc3ccnc(-c4ccccc4)n3)C[C@H]2C1=O | luciferase / reporter gene / replicon | EC50 | 1b | - | - | >10 µM |
| CCOC(=O)[C@H](C)NP(=O)(OC[C@H]1O[C@@H](n2cc(F)c3c(N)ncnc32)[C@](C)(F)[C@@H]1O)Oc1ccccc1 | replicon | EC90 | - | CEM | - | >10 µM |
| COc1cccc(-c2cc(O[C@@H]3C[C@H]4C(=O)N[C@]5(C(=O)NS(=O)(=O)C6CC6)C[C@H]5/C=C\CCCCN(C)C(=O)[C@@H]4C3)nc(OC)n2)c1 | luciferase / reporter gene / replicon | EC50 | 1b | - | - | 0.0005–0.199 µM |
| CNc1nc(=O)n2c3c1nnn3C[C@H]1OC2[C@H](O)[C@@H]1O | - | EC50 | - | Huh7 | - | <6.25 µM |
| COc1cc(O[C@@H]2C[C@H]3C(=O)N[C@]4(C(=O)NS(=O)(=O)C5CC5)C[C@H]4/C=C\CCCCCNC(=O)N3C2)nc(-c2ccccc2)n1 | luciferase / reporter gene / replicon | EC50 | 1b | - | - | 0.0005–0.199 µM |
| O=c1[nH]c(=O)n2c3c1nnn3CC1OC2[C@H](O)[C@@H]1O | - | EC50 | - | Huh7 | - | 23.7 µM |
| CCCNC(=S)Nc1ccc2c(c1)Cc1cc(Br)ccc1-2 | reporter gene / fluorescence | EC50 | - | Ava5-EG(delta4AB)SEAP | - | 0.001–1 µM |
| COc1nc(O[C@@H]2C[C@H]3C(=O)N[C@]4(C(=O)NS(=O)(=O)C5CC5)C[C@H]4/C=C\CCCCN(C)C(=O)[C@@H]3C2)cc(C(C)(C)C)n1 | luciferase / reporter gene / replicon | EC50 | 1b | - | - | 1–10 µM |

Again, the opening 7 rows:

| compound | read by | read-out | strain | cells | conditions | value |
|---|---|---|---|---|---|---|
| Cc1cc2c([nH]c(=O)n2Cc2ccc(F)cc2)c(N)n1 | replicon | EC50 | - | - | - | 0.926 µM |
| CC(=O)N1c2cccc(O)c2NC2=C(C(=O)CC(C)(C)C2)C1c1ccc(Cl)cc1 | luciferase / reporter gene / replicon | EC50 | 1b | - | - | 10.54 µM |
| CC(C)[C@H](NC(=O)NC1CC1)C(=O)N1CC[C@H]2[C@H]1C1(CCC1)C(=O)N2C(=O)C1CC1 | - | EC50 | - | - | - | 8.5 µM |
| CC1(C)CC(=O)C2=C(C1)Nc1c(O)cccc1N(C(=O)OCC(=O)NS(C)(=O)=O)C2c1ccc(OCc2ccccc2)cc1Cl | luciferase / reporter gene / replicon | EC50 | 1b | - | - | >32 µM |
| O=C(Nc1ccc(C2SC(=Nc3cccc(F)c3)N(Cc3ccc(OC(F)(F)F)cc3)C2=O)cc1)[C@H]1CCCN1C(=O)OCc1ccccc1 | replicon | EC50 | - | Huh7 | - | 1–5 µM |
| [N-]=[N+]=N[C@]1(CO)O[C@@H](n2ccc(N)nc2=O)[C@@H](O)[C@@H]1O | luciferase | EC50 | - | Huh7 | - | 0.22 µM |
| COc1nc(O[C@@H]2C[C@H]3C(=O)N[C@]4(C(=O)NS(=O)(=O)C5(C)CC5)C[C@H]4/C=C\CCCCN(C)C(=O)[C@@H]3C2)cc(C(C)(C)C)n1 | luciferase / reporter gene / replicon | EC50 | 1b | - | - | >10 µM |

ECn: concentration that inhibits the pathogen or its effect by n%. a–b is a range or a potency band. Conditions beyond the fields shown may differ between rows.